Target: M.HaeIII DNA methyltransferase (Haemophilus influenzae biogroup aegyptius) (UniProt P20589)
Experiment: enzyme reaction in vitro
Conditions: self-methylation in emulsion protects from HaeIII but not HhaI cleavage; SAM 80 uM, 25 C, 2 h; protein translated in vitro; label: DIG and biotin on the full 1194 bp fragment

AGCTTGCATGCCTGCGGTACCGGCCATGCGCATGGCCTAGCGCATGCGGCCGCTAGCGCG / AATTCGCGCTAGCGGCCGCATGCGCTAGGCCATGCGCATGGCCGGTACCGCAGGCATGCA
activity on this sequence: active

Reference: patent US6489103
